Experimental data from US6410594B1, “Substituted cyclopentane compounds useful as neuraminidase inhibitors” (Biocryst Pharmaceuticals, Inc., priority 1996, dated 2002).

Protein sequences, listed by entry. Tags and fused reporters are not part of them. Residues count along the entry.
UniProt P03472, 83-470 limits assumed: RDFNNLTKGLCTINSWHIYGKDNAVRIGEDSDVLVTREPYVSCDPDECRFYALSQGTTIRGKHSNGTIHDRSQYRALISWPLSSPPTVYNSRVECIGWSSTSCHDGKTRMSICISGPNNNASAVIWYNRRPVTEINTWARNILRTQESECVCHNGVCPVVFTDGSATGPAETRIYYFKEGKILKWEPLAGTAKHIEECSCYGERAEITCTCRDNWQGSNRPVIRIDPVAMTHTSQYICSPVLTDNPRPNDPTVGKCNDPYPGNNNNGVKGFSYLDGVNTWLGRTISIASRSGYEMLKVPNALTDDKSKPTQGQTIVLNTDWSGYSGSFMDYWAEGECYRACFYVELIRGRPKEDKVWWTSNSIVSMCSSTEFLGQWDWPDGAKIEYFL

Each substance was assayed against H1N9 Influenza Neuraminidase (Influenza A virus, UniProt P03472). Conditions: pH 6.5; read-out: Inhibition of H1N9 Influenza Neuraminidase IC50.
Assay type: biochemical, influenza virus (H1N9 strain)

Compared with “3β-{[(Amino)(imino)methyl]amino}-4α-[(diethylaminocarbonyl)(methylcarbonylamino)methyl]-cyclopentancarboxylic acid (isomer A at C-6) [Example 26]”, “c-3-{[(Amino)(imino)methyl]amino}-t-4-[(di-n-propylaminocarbonyl)(methylcarbonylamino)-methyl]-t-1-hydroxycyclopentan-r-carboxylic acid trifluoroacetic acid (1:1) (isomer A at C-6) [Example 24]” is 120-fold higher in IC50: 0.041 µM for the first, 4.9 µM for the second. The first is the more potent here.

Going from “c-3-{[(Amino)(imino)methyl]amino}-t-4-[(di-n-propylaminocarbonyl)(methylcarbonylamino)-methyl]-t-1-hydroxycyclopentan-r-carboxylic acid trifluoroacetic acid (1:1) (isomer B at C-6) [Example 25]” to “t-3-{[(Amino)(imino)methyl]amino}-c-4-[(diethylaminocarbonyl)(methylcarbonylamino)methyl]-t-1-hydroxycyclopentan-r-carboxylic acid trifluoroacetic acid (3:5) [Example 21]”, the IC50 falls from 2300 µM to 1.6 µM (1400-fold).
